# Experimental data: PubChem BioAssay AID504761 (Drosophila RNAi Screening Center, 2011)
# Test: 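Insect host genes that dengue virus relies on to spread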 (primary screen)
# System: D.Mel-2 cells from Drosophila
# Knock-down reagent: long dsRNA against Drosophila genes
# Treatment: infection with dengue virus type 2; dose and infection time not stated
# Detection: 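Per well on two replicate plates, imaging gave the percent of cells positive for viral envelope protein, ranked by infection, and a nuclear count of cells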
# Reading the numbers: infection score: higher = more virus-infected cells; cell count: higher = more cells in the well
# Active means: 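Low infection ranks in the two replicates (chance level up to 0.065) followed by a retest with a 1.5-fold or larger significant decrease, p below 0.05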
# Calls: active = confirmed: knock-down lowers infection; inactive = not picked or not confirmed
# The screen tested about 22,000 reagents; shown is a random part of those with a known target gene and a result. Of all reagents, 116 (0.52%) are marked active. 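Calls depend on retest data that are not deposited; infection was ranked per plate without normalising between plates; the unit of the infection score is not given.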 Raw values vary from plate to plate and are shown uncorrected. The record does not give: the amount of reagent, the time to read-out.
Gene,amplicon,"infection score, replicate 1","infection score, replicate 2","cell count, replicate 1","cell count, replicate 2",call
Prat2 (GeneID 38753),DRSC09692,7.67,7.02,6534,6556,inactive
crc (GeneID 47767),DRSC03513,2.09,0.85,1053,1058,inactive
CG13110 (GeneID 34253),DRSC02208,2.18,8.37,6067,6162,inactive
Cep89 (GeneID 36733),DRSC07110,4.26,11,6858,6585,inactive
Cep89 (GeneID 36733),DRSC29382,,26.4,275,4998,inactive
Galphaq (GeneID 36384),DRSC07432,4.81,9.5,5825,6441,inactive
Galphaq (GeneID 36384),DRSC25341,1.58,2.87,6404,5751,inactive
sgg (GeneID 31248),DRSC17228,2.78,5.63,6701,6376,inactive
sgg (GeneID 31248),DRSC17722,5.13,6.59,6555,6635,inactive
sgg (GeneID 31248),DRSC18832,6.08,2.21,6202,6697,inactive
sgg (GeneID 31248),DRSC23946,0.51,3.41,6219,5750,inactive
CG7573 (GeneID 39272),DRSC10884,0.47,3.88,6231,5928,inactive
Nadsyn (GeneID 32328),DRSC20222,2.97,2.73,6626,7004,inactive
EMC8-9 (GeneID 37635),DRSC04380,9.62,14.5,6184,6038,inactive
Pdfr (GeneID 31234),DRSC18614,3.65,4.72,6354,2245,inactive
CG12895 (GeneID 36103),DRSC06210,5.51,6.39,6793,6351,inactive
CG12895 (GeneID 36103),DRSC25590,4.83,11.1,6086,5971,inactive
Dcp-1 (GeneID 37729),DRSC04609,3.61,7.48,6625,5989,inactive
Rubicon (GeneID 31803),DRSC17889,3.72,1.31,6121,6344,inactive
Rubicon (GeneID 31803),DRSC25992,3,4.94,6793,6394,inactive
Taldo (GeneID 37804),DRSC04320,8.13,33.3,6469,5094,inactive
Taldo (GeneID 37804),DRSC27470,21.3,13.3,3951,6602,inactive
CG6071 (GeneID 39308),DRSC10579,1.72,3.66,6032,5990,inactive
